Measurements as given in patent US8354498B2, “CD4 mimic peptides and their uses” (Commissariat a l'Energie Atomique, priority 2006, dated 2013).

How the values were obtained:
Assay type in all cases: cell-based
[1] = tested on: HIV-1 pseudovirus SF162; test: HIV single cycle pseudovirus assay in GHOST cells
Method: For single-cycle infection experiments, HIV pseudoviruses representative of different HIV-1 subtypes were produced by co-transfection of 2×10^5 HEK293 (American Type Culture Collection) derived cells expressing the SV40 T antigen (HEK293 T), using the calcium phosphate method (ProFection® mammalian transfection system; PROMEGA). To this end, 1 μg of an HIV-1 env expressing vector under control of a CMV promoter, derived from pcDNA4/TO backbone vector (INVITROGEN) and 400 ng of the HIV-1 genomic vector (pNL4-3.Luc R^−E^−; National Institutes of Health AIDS Research and Reference Reagent program; catalogue number 3418), under control of the LTR promoter were used. pNL4-3.Luc R^−E^− contains the whole HIV genome, including a packaging signal, but has a frameshift in the env and vpr genes rendering it non-infectious. Furthermore a luciferase reporter gene replaces the nef gene. After 24 h, the medium was replaced with medium containing 1 mM sodium butyrate (SIGMA-ALDRICH) and the cells were further incubated for an additional 24 h. Afterwards, the supernatant with the pseudovirus was harvested, filtered (Millex 0.45 μm filters, MILLIPORE) and after adding Fetal calf serum (FCS; 10%) stored at −80° C. Pseudoviruses of different HIV-1 subtypes were created, including pseudoviruses derived from the subtype B, CCR5 co-receptor using strains Ba-L and SF162; the subtype B, CXCR4 co-receptor using strains Mn; the subtype C, CCR5 co-receptor using strains VI829, VI1358 and MJ4 and the CRF01_AE, CXCR4 co-receptor using strain CA10-3.
Fifty microliters of HIV pseudovirus were pre-incubated with 50 μl of a dilution series of a CD4 miniprotein or reference compound. After 15 minutes, 100 μl of GHOST target cells (AIDS REFERENCE AND REAGENT PROGRAM; 1.2×10^5 cells/ml) expressing CD4 and either of the HIV co-receptors CCR5 or CXCR4 were added to the 96-well cups containing the pre-treated pseudovirus. The GHOST cells were lysed 48 h post-infection by addition of the luciferin substrate (SteadyLite HTS, PERKIN ELMER LIFE SCIENCES). The resulting light signal, expressed as relative lights units (RLU), was quantified in a luminometer (Top Count™, CANBERRA-PACKARD).

[2] = tested on: HIV-1 Ba-L; test: Dendritic cells assay: MO-DC/CD4+ T cell co-cultures, replication competent virus
Method: Dendritic cell experiments were preformed with the replication-competent CCR5 co-receptor, using non-syncytium inducing, subtype B HIV-1 strain Ba-L whose infectious titer was determined on cultures of PHA/IL-2 stimulated PBMC.
Monocytes were separated from the buffy-coats of HIV seronegative blood donors by counter-flow elutriation and E-rosetting. They were subsequently differentiated to monocyte-derived dendritic cells (MO-DC) using GM-CSF and IL-4. […] After 30 minutes, 100 μl of MO-DC were added (4×10^5 cells/ml) and incubated for 2 h (37° C., 5% CO2). Afterwards, cells were washed 3 times and autologous CD4+ T cells were added, in the presence of compound. Co-cultures were incubated for 24 h, after which the cells were washed again (3 times) to remove the compound. Cells were incubated during 14 days of primary culture, during which half of the culture medium was refreshed twice weekly, without compound. At day 14, cultures were washed and PHA/IL-2 activated PBMC were added (2×10^5 cells/cup) to detect any latent or subliminal infection during a supplementary 14 days of secondary culture. Culture supernatants of primary (day 7 and day 14) and secondary (day 28) cultures were analyzed for the presence of HIV p24 Ag by a monoclonal p24 antibody (HuMab-HIVp24; BIOMARIC NV) enzyme-linked immunosorbant assay (ELISA).
Importantly, the replication-competent HIV-1 Ba-L reference strain, was used for these experiments. The virus was shortly pre-incubated with a dilution range of one of the compounds before addition of the MO-DC target cells. The compound remained present during infection and during the first 24 h of the co-culture of the MO-DC with the autologous CD4^+ T cells, but was washed away afterwards.

[3] = WST-1 cytotoxicity assay; conditions: human, ME-180 endocervical cells, ME-180 cells, read-out: cellular toxicity, no toxicity up to concentration
Method: Cytotoxicity of the compounds was evaluated using an enhanced colorimetric MTT-assay, WST-1, according to the manufacturer's instructions (ROCHE).Target cells were either co-cultures of monocyte-derived dendritic cells and allogeneic CD4^+ T cells or cultures of ME-180 endocervical cells. Briefly, MO-DC/CD4+ T cell co-cultures or ME-180 cells were incubated for respectively 5 days or 24 hours, in the presence of compound. WST-1 reagent was added on the last day of the (co-)culture. Cellular cytotoxicity was quantified 6 h later by analysis in ELISA.
Since a microbicide will be applied into the vaginal lumen, also the cytotoxicity towards genital epithelial cells is of importance. The ME-180 cell line as was used as a model for the epithelial cells which line the cervix in vivo.

[4] = tested on: HIV-1 77(X4); test: Acute infection assay in PM1 cells; conditions: day 5, read-out: Antiviral activity IC50
Method: For the acute infection assay in PM1 cell line (Lusso et al., J. virol., 1995, 69, 3712-3720), an immortalized CD4^+CCR5^+CXCR4^+ T-cell clone susceptible of a wide variety of HIV-1 strains, the cells were seeded at 2.5×10^4 cells/well into flat-bottom 96-well plates in 200 μL of complete RPMI medium. Cells were then exposed to the viral stocks (˜50 TCID50/well) pre-treated or not with serial dilutions of inhibitors for 30 min. After overnight incubation at 37° C., the cells were washed twice and recultured in complete RPMI medium supplemented with the appropriate inhibitors. After 3, 5 or 7 days, the culture supernatant was removed […] p24 antigen testing and replaced with fresh medium containing the appropriate inhibitors. The extracellular p24 concentrations were measured by capture ELISA, using a sandwich of specific antibodies (AALTO BIO REAGENTS).
The experimental procedures are as described in example 1.

With `CC(C)C[C@@H]1NC(=O)CNC(=O)[C@H](CC(C)C)NC(=O)[C@H](CO)NC(=O)[C@H](CCCCN)NC(=O)[C@@H]2CSSC[C@@H](C(=O)N[C@H](C(N)=O)C(C)C)NC(=O)[C@H](C)NC(=O)[C@@H]3CSSC[C@H](NC(=O)[C@H](Cc4ccccc4)NC(=O)[C@H](Cc4c[nH]cn4)NC(=O)[C@H](CC(C)C)NC(=O)[C@H](CC(N)=O)NC(=O)CCSSC[C@H](NC(=O)[C@H](CCCNC(=N)N)NC(=O)CNC(=O)[C@H](CC(C)C)NC1=O)C(=O)N[C@@H](C)C(=O)N1CCC[C@@H]1C(=O)N[C@@H]([C@@H](C)O)C(=O)N[C@@H](Cc1ccccc1)C(=O)N3)C(=O)N[C@@H](CCC(N)=O)C(=O)N[C@@H](CC(C)C)C(=O)N[C@@H](CCCNC(=N)N)C(=O)N2` [CD4M48] the EC50 ([1]; pseudovirus SF162, subtype B, R5, read-out: antiviral activity EC50) was 5 nM, the “Enhancement of antiviral activity relative to M47 and M33” value ([1]; single-cycle HIV-1 SF162 pseudovirus assay) was “approximately 4 fold” and the “EC50 range after 7 days of primary culture” value ([2]; Day 7) was “lower μM range”. For the same compound, the “Cmin, secondary culture, Day 28 (minimal concentration blocking infection)” value ([2]; confirmed at Day 28) was 6.605 µM, the CC50 at 24 h [3] was greater than 10 µg/mL and the IC50 [4] was 250 nM.
